Measurements reported in PubChem BioAssay AID504761 (Drosophila RNAi Screening Center, 2011).
Test: 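Genome-wide fly cell screen for genes dengue virus requires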 (primary screen). Cell system: D.Mel-2 cells from Drosophila. Reagent: long dsRNA against Drosophila genes. Conditions: infection with dengue virus type 2; dose and infection time not stated. Measured: 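Per well on two replicate plates, imaging gave the percent of cells positive for viral envelope protein, ranked by infection, and a nuclear count of cells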. Scale: infection score: higher = more virus-infected cells; cell count: higher = more cells in the well. Rule for the call: 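Very low infection ranking in both replicate wells (chance probability at most 0.065), then a retest showing infection dropped 1.5-fold or more at p below 0.05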. Meaning of the calls: active = confirmed: knock-down lowers infection; inactive = not picked or not confirmed.
In all, the deposit lists about 22,000 reagents; shown is a random part of those with a known target gene and a result. Over the whole deposit, 116 (0.52%) were called active. 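Calls depend on retest data that are not deposited; infection was ranked per plate without normalising between plates; the unit of the infection score is not given.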 Raw values are not corrected between plates. A number with no mark means an inactive call. Further read-outs or replicates are left out here. Reagent sequences are not shown. Not stated in the record: the amount of reagent, the time to read-out.

For naz (nazgul) [SID104194582], what was measured?
infection score, replicate 1: 1.73; cell count, replicate 1: 6286

Which result is listed for naz (nazgul) [SID104195991]?
infection score, replicate 1: 2.26; cell count, replicate 1: 6905

What did the screen give for Cyp4aa1 (Cytochrome P450 4aa1) [SID104187160]?
infection score, replicate 1: 5.74; cell count, replicate 1: 6688

Which result is listed for Cyp4aa1 (Cytochrome P450 4aa1) [SID104206192]?
infection score, replicate 1: 7.87; cell count, replicate 1: 3114

Which result is listed for CG31219 [SID104194932]?
infection score, replicate 1: 5.09; cell count, replicate 1: 6922

How did the screen score CG31109 [SID104194440]?
infection score, replicate 1: 7.65; cell count, replicate 1: 5935

For CG12826 [SID104185967], what was measured?
infection score, replicate 1: 5.1; cell count, replicate 1: 6280

For CG42254 (retired record) [SID104185986], what was measured?
infection score, replicate 1: 16.6; cell count, replicate 1: 5578

Which result is listed for CG7378 [SID104199833]?
infection score, replicate 1: 1.5; cell count, replicate 1: 6261

For CG4393 [SID104195365], how do the results read?
infection score, replicate 1: 1.06; cell count, replicate 1: 6677

With EMRE (Essential MCU regulator) [SID104186478], how do the results read?
infection score, replicate 1: 7; cell count, replicate 1: 6476

Which result is listed for Idh3g [SID104195491]?
infection score, replicate 1: 4.61; cell count, replicate 1: 5861

What did the screen give for Idh3g [SID104205172]?
infection score, replicate 1: 2.08; cell count, replicate 1: 5826
